Pooled drug test results. Numbers come from NIAID ChemDB, via PubChem.

All rows: whole-cell or culture tests; organism: Mycobacterium tuberculosis

Percent inhibition refers to the dose given; in toxicity tests it is the harm to the cells. An empty or dashed field is not shown. ECn: concentration that inhibits the pathogen or its effect by n%. Conditions beyond the fields shown may differ between rows. MIC bound comes from a single tested concentration.

structure	dose	measure	changes	strain or isolate	read by	value
Cc1cc(O)c(C=O)c(O)c1	-	MIC	-	H37Rv	-	100 µg/mL
Cc1ccc(S(=O)(=O)Nc2nnc(-c3coc4ccc(C)cc4c3=O)s2)cc1	6.25 µg/mL	inhibition	-	H37Rv	resazurin	-16%
NCC[C@H](O)C(=O)N[C@@H]1C[C@H](N)[C@@H](O[C@H]2O[C@H](CN)[C@@H](O)[C@H](O)[C@H]2O)[C@H](O)[C@H]1O[C@H]1O[C@H](CO)[C@@H](O)[C@H](N)[C@H]1O	-	MIC	-	5R	-	2.5 µg/mL
CCCCCCCCc1ccncc1	-	MIC	-	H37Rv	-	>100 µg/mL
Oc1ccc(CCNCCN[C@@H](c2ccccc2)[C@H](O)c2ccccc2)cc1O	-	MIC	-	-	-	50 µM
O=C(O)c1cc(Cl)c(Cl)c(Cl)c1Cl	-	MIC	-	H37Rv	-	>100 µg/mL
COC(=O)C1C2C=CC(C1C(=O)OC)C1C(C(=O)NN)C(C(=O)NN)C21	-	MIC bound	-	H37Rv	BACTEC	>12.5 µg/mL
CC(C)c1ccc2c(c1)CC[C@H]1[C@](C)(CNCCNCCc3ccccc3Cl)CCC[C@]21C	-	MIC	-	-	-	50 µM
C=C1c2[nH]c3ccccc3c2C2C(CC)C1CCN2C	12.8 µg/mL	inhibition	-	H37Rv	BACTEC	9%
O=c1[nH]c2c([N+](=O)[O-])cccc2c(O)c1N=Nc1ccc([N+](=O)[O-])cc1	6.25 µg/mL	inhibition	-	H37Rv	resazurin	65%
O=C1OC(=O)c2c(I)c(I)c(I)c(I)c21	-	MIC	-	H37Rv	-	>100 µg/mL
CNC(=O)Nc1nc2ccc([N+](=O)[O-])cc2[nH]1	6.25 µg/mL	inhibition	-	H37Rv	resazurin	1%
CN1c2ccccc2CCC1CCc1ccc2c(c1)OCO2	-	MIC	-	MT3	-	>339 µg/mL
O=c1[nH]c2c(Cl)ccc(Cl)c2c(O)c1N=Nc1ccc(F)cc1	-	MIC	-	H37Rv	resazurin	<6.25 µg/mL
O=[N+]([O-])c1cc([As](=O)(O)O)ccc1O	-	MIC	-	H37Rv	-	>100 µg/mL
COC(=O)c1nn2c(=O)[nH]c3ccccc3c2c1C(=O)OC	-	MIC bound	-	H37Rv	BACTEC	>12.5 µg/mL
O=C(O)c1cc(O)ccc1O	-	MIC	-	H37Rv	-	>100 µg/mL
Cc1[nH]c2ccc(N(C)C)cc2c(=O)c1CNCc1ccccc1	-	MIC bound	-	H37Rv	BACTEC	>12.5 µg/mL
CO[C@H]1/C=C/O[C@@]2(C)Oc3c(C)c(O)c4c(O)c(c(/C=N/N5CCN(C/C=C/c6ccccc6)CC5)c(O)c4c3C2=O)NC(=O)/C(C)=C\C=C\[C@H](C)[C@H](O)[C@@H](C)[C@@H](O)[C@@H](C)[C@H](OC(C)=O)[C@@H]1C	-	MBC	-	MTB11	-	0.12 µg/mL
NNC(=O)c1ccncc1	-	MIC	Multidrug-resistant	Clinical isolate 565	broth dilution	>10 µM
CCCCCCCNCc1cc(Nc2ccnc3cc(Cl)ccc23)ccc1O.Cl	-	MIC	-	H37Rv	-	>100 µg/mL
NC(=O)CCN1CCCN(CCC(N)=O)CCN(CCC(N)=O)CCCN(CCC(N)=O)CC1	-	MIC bound	-	H37Rv	resazurin	>6.25 µg/mL
CCOC(=O)c1sc(C(=O)OCC)c(O)c1O	-	MIC	-	H37Rv	-	>100 µg/mL
COC(=O)CNC(=O)C(NC(=O)C1CCCN1C(=O)OCc1ccccc1)C(C)C	12.5 µg/mL	inhibition	-	H37Rv	BACTEC	-6%
CC(CNCCC(c1ccccc1)c1ccccc1)NC[C@@H]1CC[C@H]2C[C@@H]1C2(C)C	-	MIC	-	-	-	12.5 µM
Cn1cc2ccc([N+](=O)[O-])cc2n1	-	MIC	-	H37Rv	-	>100 µg/mL
CCOC(=O)Nc1cc2[nH]c(-c3ccccc3F)nc2c(N(CCc2ccccc2)Cc2ccccc2)n1	-	EC50	-	H37Rv	-	<12.5 µg/mL
CCOC(=O)N(CC)N=O	-	MIC	-	H37Rv	-	>100 µg/mL
NNC(=O)c1ccc(C(=O)NN)o1	12.5 µg/mL	inhibition	-	H37Rv	BACTEC	6%
c1ccc(C(CNCCNCC23CC4CC(CC(C4)C2)C3)c2ccccc2)cc1	-	MIC	-	-	-	9.4 µM
CC(=O)NC[C@H]1CN(c2ccc(N3CCOCC3)c(F)c2)C(=O)O1	-	MIC	-	5R	-	0.5 µg/mL
CC12CCC(C(=O)C1=O)C2(C)C	-	MIC	-	H37Rv	-	50 µg/mL
Cc1coc2c1C[C@]1(C)[C@@H](CC[C@H](O)[C@H]1C)C2	-	MIC bound	-	H37Rv	resazurin	>6.25 µg/mL
Cl.Nc1cscc1C(=O)O	-	MIC	-	H37Rv	-	>100 µg/mL
CCOC(=O)Nc1cc2n[nH]nc2c(Cl)n1	-	EC50	-	H37Rv	-	>12.5 µg/mL
CO[C@H]1/C=C/O[C@@]2(C)Oc3c(C)c(O)c4c(O)c(c(/C=N/N5CCN(C6CCCC6)CC5)c(O)c4c3C2=O)NC(=O)/C(C)=C\C=C\[C@H](C)[C@H](O)[C@@H](C)[C@@H](O)[C@@H](C)[C@H](O)[C@@H]1C	-	MIC	-	Isolate 910328 rifampicin-resistant	-	>32 µg/mL
COc1cc(C2c3cc4c(cc3C(OC3OC(CO)C(O)C(O)C3O)C3COC(=O)C23)OCO4)cc(OC)c1OC	12.5 µg/mL	inhibition	-	H37Rv	BACTEC	19%
C[C@H]1COc2c(N3CCN(C)CC3)c(F)cc3c(=O)c(C(=O)O)cn1c23	-	MIC	-	Isolate 9	-	4 µg/mL
COc1ccc(CCc2cc(OC)c3ccccc3n2)cc1OC	-	MIC	-	MT8	-	12.5 µg/mL
Cc1cccc(N=Nc2c(O)c3cccc([N+](=O)[O-])c3[nH]c2=O)c1	6.25 µg/mL	inhibition	-	H37Rv	resazurin	95%
CO/C(C)=C1/NC(=O)[C@H]([C@@H](C)O)NC(=O)c2csc(n2)-c2cc(O)c(-c3nc(C(=O)NCCCN4CCOCC4)cs3)nc2-c2csc(n2)[C@@H]2COC(=O)c3c4c5c(cccc5n3O)COC(=O)[C@@H](O[C@H]3C[C@](C)(O)[C@H](N(C)C)[C@H](C)O3)[C@@H](OC4)[C@H](NC(=O)c3csc1n3)c1nc(cs1)C(=O)N2	-	MIC	Isoniazid-resistant	Clinical isolate 9139	broth dilution	≤2.5 µM
Cc1ccc(N=Nc2c(O)c3ccc([N+](=O)[O-])cc3[nH]c2=O)cc1	-	MIC	-	H37Rv	resazurin	<6.25 µg/mL
CO[C@H]1/C=C/O[C@@]2(C)Oc3c(C)c(O)c4c(O)c(c(/C=N/N5CCN(C)CC5)c(O)c4c3C2=O)NC(=O)/C(C)=C\C=C\[C@H](C)[C@H](O)[C@@H](C)[C@@H](O)[C@@H](C)[C@H](OC(C)=O)[C@@H]1C	-	MIC	Rifampicin- isoniazid- moxifloxacin-resistant	Clinical isolate 6134	broth dilution	>10 µM
CCCCCC(C)NCCNC[C@]1(C)CCC[C@]2(C)c3ccc(C(C)C)cc3CC[C@@H]12	-	MIC	-	-	-	12.5 µM
Cl.ClCC1C=CN2C=CC(Cl)C12	-	MIC	-	H37Rv	-	>100 µg/mL
O=c1[nH]c2cc([N+](=O)[O-])ccc2c(O)c1N=Nc1ccc(Br)cc1	-	MIC	-	H37Rv	resazurin	<6.25 µg/mL
O=C(Nc1ccc(Cl)cc1)Nc1nnc2nc(C(C(=O)c3cccc([N+](=O)[O-])c3Cl)c3nc4nnc(NC(=O)Nc5ccc(Cl)cc5)n4[nH]c3=O)c(=O)[nH]n12	12.5 µg/mL	inhibition	-	H37Rv	BACTEC	26%
O=C(Nc1ccccc1)C(=O)c1ccccc1C(=O)O	-	MIC	-	H37Rv	-	100 µg/mL
CC(=O)O[C@H]1C(=O)[C@@]2(C)[C@H]([C@H](OC(=O)c3ccccc3)[C@]3(O)C[C@H](OC(=O)[C@H](O)[C@@H](NC(=O)c4ccccc4)c4ccccc4)C(C)=C1C3(C)C)[C@]1(OC(C)=O)CO[C@@H]1C[C@@H]2O	12.8 µg/mL	inhibition	-	H37Rv	BACTEC	77%
CCOC(=O)Nc1cc(=O)c([N+](=O)[O-])c(N)[nH]1	12.5 µg/mL	inhibition	-	H37Rv	-	0%
CO/C(C)=C1/NC(=O)[C@H]([C@@H](C)O)NC(=O)c2csc(n2)-c2cc(OC)c(-c3nc(C(=O)NCCCN4CCOCC4)cs3)nc2-c2csc(n2)[C@@H]2COC(=O)c3c4c5c(cccc5n3O)COC(=O)[C@@H](O[C@H]3C[C@](C)(O)[C@H](N(C)C)[C@H](C)O3)[C@@H](OC4)[C@H](NC(=O)c3csc1n3)c1nc(cs1)C(=O)N2	-	MIC	Multidrug-resistant	Clinical isolate 565	broth dilution	≤1 µM
CO[C@H]1/C=C/O[C@@]2(C)Oc3c(C)c(O)c4c(O)c(c5c(c4c3C2=O)NC2(CCN(CC(C)C)CC2)N=5)=NC(=O)/C(C)=C\C=C\[C@H](C)[C@H](O)[C@@H](C)[C@@H](O)[C@@H](C)[C@H](OC(C)=O)[C@@H]1C	-	MIC	-	Strain 76 (H526G)	-	0.25 µg/mL
CCOC(=O)Nc1cc2c(c(N)n1)N=C(c1ccccc1)CO2	-	EC50	-	H37Rv	-	>12.5 µg/mL
NNC(=O)c1ccncc1	-	MIC	-	PR1370	-	0.08 µg/mL
O=C1CN(c2ccccc2)C(=O)CN1/N=C/c1ccc[nH]1	-	MIC bound	-	H37Rv	BACTEC	>12.5 µg/mL
C[C@@H]1CN(c2c(F)c(N)c3c(=O)c(C(=O)O)cn(C4CC4)c3c2F)C[C@H](C)N1	-	MIC	-	Isolate 14	-	0.13 µg/mL
CCCCCC(C)NCCNCc1ccccc1Sc1ccccc1CO	-	MIC	-	-	-	50 µM
Cc1cccnc1NN	12.5 µg/mL	inhibition	-	H37Rv	BACTEC	8%
NC(=O)Cc1ccc(O)cc1	-	MIC	-	H37Rv	-	>100 µg/mL
C[N+](C)=c1ccc2nc3ccc(N)cc3sc-2c1.[Cl-]	12.5 µg/mL	inhibition	-	H37Rv	BACTEC	64%
CCOC(=O)Nc1cc(NC(C)C(C)c2ccc3c(c2)OCO3)c([N+](=O)[O-])c(N)n1	12.5 µg/mL	inhibition	-	H37Rv	-	8%
CCCCCCCCCC(=O)OCCN1CCN(CCCN2c3ccccc3Sc3ccc(C(F)(F)F)cc32)CC1	12.5 µg/mL	inhibition	-	H37Rv	BACTEC	98%
C=C(NC(=O)c1csc(-c2nc3c(cc2O)-c2nc(cs2)C(=O)N[C@@H]([C@@H](C)O)C(=O)N/C(=C(\C)OC)c2nc(cs2)C(=O)N[C@@H]2c4nc(cs4)C(=O)N[C@@H](COC(=O)c4c5c6c(cccc6n4O)COC(=O)[C@@H](O[C@H]4C[C@](C)(O)[C@H](N(C)C)[C@H](C)O4)[C@H]2OC5)c2nc-3cs2)n1)C(N)=O	-	MIC	Rifampicin- and isoniazid-resistant	Clinical isolate 10525	broth dilution	≤2.5 µM
CCCCSCCOCCOc1c(Cl)cc(Cl)c(Cl)c1Cl	-	MIC	-	H37Rv	-	>100 µg/mL
FC(F)(F)c1cc(NC(=S)SCc2ccc3c(c2)OCO3)ccc1Cl	12.5 µg/mL	inhibition	-	H37Rv	BACTEC	4%
O=c1[nH]c2c(Cl)c(Cl)ccc2c(O)c1N=Nc1cccc([N+](=O)[O-])c1	-	MIC	-	H37Rv	resazurin	>6.25 µg/mL
CC(C)N=c1cc2n(-c3ccc(Cl)cc3)c3ccccc3nc-2cc1Nc1ccc(Cl)cc1	-	MIC	-	MDR21	broth dilution / resazurin	1 µg/mL
COc1ccccc1CCNCCNC1C2CC3CC(C2)CC1C3	-	MIC	-	-	-	25 µM
O=S(=O)(O)c1ccc(O)c2ncccc12	-	MIC	-	H37Rv	-	>100 µg/mL
NC(=O)N=Nc1ccc(NNC(N)=O)cc1	-	MIC bound	-	H37Rv	BACTEC	>12.5 µg/mL
CCCCC(CC)CN1CN(CC(CC)CCCC)CC(C)(NCCNC2CCC2)C1	-	MIC	-	-	-	12.5 µM
Nc1ccc(Sc2ccc(N)cc2)cc1	-	MIC	-	H37Rv	-	100 µg/mL
O=C(CCl)Nc1nc(=O)[nH]s1	12.5 µg/mL	inhibition	-	H37Rv	BACTEC	6%
C=CCOC(=O)c1c(C(=O)O)cccc1[N+](=O)[O-]	-	MIC	-	H37Rv	-	>100 µg/mL
CC[C@@H](CO)NCCNC1CCCCCCC1	-	MIC	-	-	-	25 µM
NC[C@H]1O[C@H](O[C@H]2[C@H](O)[C@@H](O[C@H]3O[C@H](CO)[C@@H](O)[C@H](N)[C@H]3O)[C@H](N)C[C@@H]2N)[C@H](O)[C@@H](O)[C@@H]1O	-	MIC	-	Isolate 4	-	4 µg/mL
CCOC(=O)/C(=N/O)C(C)CC	-	MIC	-	H37Rv	-	>100 µg/mL

For reference, 5 entries again:

structure,dose,measure,changes,strain or isolate,read by,value
NC[C@H]1O[C@H](O[C@H]2[C@H](O)[C@@H](O[C@H]3O[C@H](CO)[C@@H](O)[C@H](N)[C@H]3O)[C@H](N)C[C@@H]2N)[C@H](O)[C@@H](O)[C@@H]1O,-,MIC,-,Isolate 4,-,4 µg/mL
CO[C@H]1/C=C/O[C@@]2(C)Oc3c(C)c(O)c4c(O)c(c(/C=N/N5CCN(C/C=C/c6ccccc6)CC5)c(O)c4c3C2=O)NC(=O)/C(C)=C\C=C\[C@H](C)[C@H](O)[C@@H](C)[C@@H](O)[C@@H](C)[C@H](OC(C)=O)[C@@H]1C,-,MBC,-,MTB11,-,0.12 µg/mL
CCCCCC(C)NCCNC[C@]1(C)CCC[C@]2(C)c3ccc(C(C)C)cc3CC[C@@H]12,-,MIC,-,-,-,12.5 µM
CCOC(=O)c1sc(C(=O)OCC)c(O)c1O,-,MIC,-,H37Rv,-,>100 µg/mL
NCC[C@H](O)C(=O)N[C@@H]1C[C@H](N)[C@@H](O[C@H]2O[C@H](CN)[C@@H](O)[C@H](O)[C@H]2O)[C@H](O)[C@H]1O[C@H]1O[C@H](CO)[C@@H](O)[C@H](N)[C@H]1O,-,MIC,-,5R,-,2.5 µg/mL